In patent publication US9675065B2 (priority 2011, dated 2017):

How the values were obtained:
[1] = system: S. aureus (Staphylococcus aureus ATCC#6538)

Question: O=C(CO)O[Cl+2]([O-])[O-] was tested. Which “rate of kill increased by” value ([1]; combined with surfactants Tergitol TMN 3, Tergitol TMN 6, Dowfax C10L versus without) did it give?
Answer: The value was 5 log.

Question: Which “biocide efficacy (in words)” value (Staphylococcus aureus; at about pH 7, without penetrators) does the source give for O=C(O[Cl+2]([O-])[O-])c1ccccc1 here?
Answer: The value was “no recognizable biocide efficacy”.

Question: And the “rate of kill / biocide efficacy (in words)” value ([1]; acid pH conditions)?
Answer: The value was “excellent rate of kill”.

Question: For CCCCCCCC(=O)O[Cl+2]([O-])[O-], which “Log Rate of Kill” value (Staphylococcus aureus; in 30 seconds or less) is on record?
Answer: Its value is 8 Log.

Question: What about the “rate of kill (in words)” value (Staphylococcus aureus; pH approaching 6) of the same molecule?
Answer: Its value is “excellent rate of kill”.
